This note sets out measurements from article PMC6016246.

The exact form of at least one protein or probe is not confirmed. At least one verdict was read from the data and is not stated in words by the source.

The target of this data set is Rv0078 (UniProt O53623). Description: EMSA. Conditions: room temperature 30 min, buffer not stated, recombinant protein, protein details: C-terminal His6, label: 5'-IRDye700 on S21, letters put together from the description. In general terms: In EMSA bound probe runs differently from free probe, usually more slowly.

As for “GTACATTTACAAGCAGACTGCCGGTAACTTACCCCAGACCAGGGCAC / GTGCCCTGGTCTGG / GGTAAGTTACCGGCAGTCTGCTTGTAAATGTAC [+19/-14 (WT)]”, the binding result is given as “binds”.
